Measured values from publication PMC4865845, “A human genome-wide loss-of-function screen identifies effective chikungunya antiviral drugs” (Nature Communications, 2016).

Tested on: CHIKV
Assay type: cell-based, chikungunya virus
Settings: WST-1 IC50 divided by CHIKV IC50; NT = non-toxic

Row | Compound | Therapeutic index
1 | OCCN1CCN(CCCN2c3ccccc3Sc3ccc(Cl)cc32)CC1 [Perphenazine] | 38.28
2 | COc1cc(N2CCC(N3CCN(C)CC3)CC2)ccc1Nc1ncc(Cl)c(Nc2ccccc2S(=O)(=O)C(C)C)n1 [TAE684] | 14.28
3 | CNC(=O)c1cc(Oc2ccc(NC(=O)Nc3ccc(Cl)c(C(F)(F)F)c3)cc2)ccn1 [Sorafenib] | 16.42
4 | CCCCn1c2cc(OC)c(Cl)cc2c2ccnc(C)c21 [AnnH14, 9-butyl-6-chloro-7-methoxy-1-methyl-9H-pyrido[3,4-b]indole] | 6.79
5 | CCCCCCCCCCC[C@@H](C[C@@H]1OC(=O)[C@H]1CCCCCC)OC(=O)[C@H](CC(C)C)NC=O [Orlistat] | 10.57
6 | CC(Cc1ccccc1)NCCC(c1ccccc1)c1ccccc1 (stereo not drawn) [Prenylamine] | 6.91
7 | O=c1[nH]c2ccccc2n1C1CCN(CCCC(c2ccc(F)cc2)c2ccc(F)cc2)CC1 [Pimozide] | 69.75
8 | C/C=C/C/C=C/CCC(=O)[C@H]1O[C@H]1C(N)=O [Cerulenin] | 2.53
9 | C=CC/C=C\C/C=C\CCCCCCCc1cccc(O)c1C(=O)O [(15:3)-Anacardic acid] | 4.65
10 | COc1ccc2c(c1)[nH]c1c(/C=C/c3ccccc3)nccc12 [AnnH18, (E)-7-methoxy-1-(2-phenylethen-1-yl)-9H-pyrido[3,4-b]indole] | 9.04
11 | KH-CB19 | 3.26
12 | CCOC(=O)C1=C(C)NC(C)=C(C(=O)OC)C1c1cccc(Cl)c1Cl (stereo not drawn) [Felodipine] | 3.73
